# PubChem BioAssay AID624099 | ICCB-Longwood | 2012
# Screen: 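Knock-downs relieving repression by E2 of an HPV18 LCR luciferase reporter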 (primary screen)
# Cell system: human C33A cervical carcinoma cells (HPV-negative) stably expressing BPV1 E2 and an HPV18 LCR luciferase reporter
# Reagent: siRNA pool against human genes, 40 nM
# Duration: 72 h
# Measurement: 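Per-well luciferase luminescence, z-scored on each plate against the plate mean and SD with control wells left out, then averaged across three replicate plates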
# Scale: mean z-score and z-score: higher = stronger reporter signal, weaker E2 silencing
# Call rule: 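Mean z ≥ 2 together with z ≥ 2 in two or more of the three replicates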
# This is an unselected part of about 21,000 reagents. Over the whole deposit, 497 (2.4%) were called active. 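Higher z means weaker E2 silencing; only reporter increases were scored, and knock-downs that hurt cell survival may mask genuine repressor factors.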 Entries without a mark were called inactive.
gene symbol,mean z-score,"z-score, replicate A","z-score, replicate B","z-score, replicate C"
LINC00615 (long independently transcribed non-coding RNA 615),-1.39,-1.09,-1.5,-1.57
DKFZp451B082,-0.73,-0.79,-0.52,-0.87
PPP1R8 (protein phosphatase 1 regulatory subunit 8),1.15,0.87,1.36,1.23
PRAC1 (PRAC1 small nuclear protein),-1.5,-1.55,-1.66,-1.28
GTF2H5 (general transcription factor IIH subunit 5),-0.1,-0.63,0.17,0.16
LOC401032 (retired record),0.87,1.17,0.59,0.84
TRIM4 (tripartite motif containing 4),-0.43,-0.6,-0.33,-0.37
LINC01061 (long independently transcribed non-coding RNA 1061),1.28,1.43,0.69,1.72
SMIM3 (small integral membrane protein 3),0.14,-0.43,0.28,0.56
PRSS23 (serine protease 23),0.31,0.31,-0.14,0.77
SLC7A6,-1.23,-1.29,-1.15,-1.26
LOC388639 (retired record),0.22,0.54,0.17,-0.06
SLC8B1,-0.45,-0.52,-0.33,-0.5

Reprinted from above, 4 entries:
gene symbol,mean z-score,"z-score, replicate A","z-score, replicate B","z-score, replicate C"
SMIM3 (small integral membrane protein 3),0.14,-0.43,0.28,0.56
PRSS23 (serine protease 23),0.31,0.31,-0.14,0.77
SLC7A6,-1.23,-1.29,-1.15,-1.26
LOC388639 (retired record),0.22,0.54,0.17,-0.06

Continued.
gene symbol,mean z-score,"z-score, replicate A","z-score, replicate B","z-score, replicate C"
CNGB3 (cyclic nucleotide gated channel subunit beta 3),0.64,0.78,0.53,0.59
ATP13A4 (ATPase 13A4),-1.63,-1.51,-1.42,-1.96
SPATC1L (spermatogenesis and centriole associated 1 like),0.85,0.2,1.4,0.96
UFL1 (UFM1 specific ligase 1),-0.29,-0.54,-0.02,-0.29
LOC392467 (retired record),1.18,1.58,1.65,0.31
GAMTP1 (guanidinoacetate N-methyltransferase pseudogene 1),0.09,0.35,0,-0.07
LMBRD2 (LMBR1 domain containing 2),0.75,0.62,0.73,0.91
CPEB4 (cytoplasmic polyadenylation element binding protein 4),-0.16,-0.35,-0.05,-0.08
ZNF175 (zinc finger protein 175),-0.01,-0.19,0.16,-0.01
"CBY1 (chibby 1, beta catenin antagonist)",1.92,1.95,2.05,1.75
